Measured values published in PMC9365860 (Cell Reports, 2022).

Molecular target: Recombinant stabilized SARS-CoV-2 spike for ELISA (Wuhan) (SARS-CoV-2, Wuhan, stabilised)
Assay: ELISA
Settings: both partners purified

B1: P008_60 F(ab')2 (other)
VH: EVQLVESGGGVVQPGRSLRLTCAASGFIFSSYGMHWVRQAPGKGLEWVAVISYDGSYKYYADSVKGRFTISRDNSKNTLYLQMNSLRAEDTAVYYCTKADYYDFWSGYQKTYYYYMDVWGKGTTVTISS
VL: DIQLTQSPGTLSLSPGERATLS[letters of about 80 residues omitted]ITFGQGTRLEIK
binding result: binds
